Taken from: PubChem BioAssay AID624099 (ICCB-Longwood, 2012)
Purpose: 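Host factors E2 relies on to silence an HPV18 LCR reporter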 (primary screen). Cells: human C33A cervical carcinoma cells (HPV-negative) stably expressing BPV1 E2 and an HPV18 LCR luciferase reporter. Knock-down reagent: siRNA pool against human genes, 40 nM. Time to read-out: 72 h. Detection: 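HPV18 LCR reporter light per well, converted to plate-wise z-scores that exclude control wells, and averaged over triplicate plates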. Scale: mean z-score and z-score: higher = stronger reporter signal, weaker E2 silencing. Call rule: 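Hit if mean z-score reaches 2 and two or more of three replicate z-scores also reach 2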.
This is an unselected part of about 21,000 reagents tested. In the full data, 497 (2.4%) got an active call. 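Higher z means weaker E2 silencing; only reporter increases were scored, and knock-downs that hurt cell survival may mask genuine repressor factors.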 A number with no mark means an inactive call. Reagent sequences are not shown.

gene symbol	mean z-score	z-score, replicate A	z-score, replicate B	z-score, replicate C
RUSC1 (GeneID 23623)	-1.16	-1.36	-1.01	-1.13
FKBP11 (GeneID 51303)	-1.23	-1.32	-1.34	-1.04
CTU1 (GeneID 90353)	0.44	0.39	0.24	0.68
A2ML1 (GeneID 144568)	1.52	1.67	1.45	1.45
SBF2 (GeneID 81846)	-0.73	-0.7	-0.79	-0.7
TRIM56 (GeneID 81844)	-0.79	-1.15	-0.74	-0.47
BMP6 (GeneID 654)	0.13	0.13	0.06	0.21
F11 (GeneID 2160)	-0.68	-0.86	-0.91	-0.27
ZNF214 (GeneID 7761)	-0.75	-0.73	-0.65	-0.88
LOC392583 (retired record) (GeneID 392583)	-0.07	-0.36	0.02	0.14
GLIS2 (GeneID 84662)	-0.85	-0.83	-0.93	-0.8
CD5 (GeneID 921)	-0.95	-0.93	-1.01	-0.92
LRTM3 (GeneID 643677)	-0.37	-0.35	-0.35	-0.42
CCDC30 (GeneID 728621)	0.39	0.8	0.02	0.34
IL18 (GeneID 3606)	1.69	1.75	1.72	1.6
OR5AP2 (GeneID 338675)	-0.91	-1.18	-1.02	-0.53
WDFY1 (GeneID 57590)	0.19	-0.13	-0.08	0.78
GULP1 (GeneID 51454)	-0.42	-0.52	-0.55	-0.21
RGS22 (GeneID 26166)	-0.59	-0.62	-0.78	-0.38
RPA3 (GeneID 6119)	0.81	0.71	0.82	0.89
SPANXD (GeneID 64648)	0.01	-0.33	0.35	-0.2
FERMT3 (GeneID 83706)	-0.02	-0.02	0.01	-0.05
C22orf46P (GeneID 79640)	-0.1	0.65	-0.54	-0.41
LOC387756 (retired record) (GeneID 387756)	-0.65	-0.55	-0.79	-0.6
ATE1 (GeneID 11101)	1.17	1.42	0.78	1.3
TRAF6 (GeneID 7189)	-1.12	-1.15	-1.14	-1.06
TPST1 (GeneID 8460)	1.43	1.55	1.45	1.29
PPHLN1 (GeneID 51535)	0.04	0.17	-0.54	0.5
USH1C (GeneID 10083)	0.32	-0.06	0.35	0.68
NAT8 (GeneID 9027)	-0.44	-0.68	-0.12	-0.51
DNAJC10 (GeneID 54431)	0.15	0.18	0.31	-0.04
OR14A16 (GeneID 284532)	-0.09	-0.18	0.31	-0.41
SLC71A2 (GeneID 84641)	-0.06	-0.16	0.02	-0.05
LOC389328 (retired record) (GeneID 389328)	2.08 (active)	2.11	1.97	2.16
KLHL13 (GeneID 90293)	1.51	1.19	1.7	1.65
ALYREF (GeneID 10189)	-1.8	-1.72	-1.76	-1.92
LOC402494 (retired record) (GeneID 402494)	0.99	1.05	1.24	0.69
WDR24 (GeneID 84219)	-0.2	-0.6	-0.09	0.11
AUP1 (GeneID 550)	0.43	0.61	0.1	0.59
ADIG (GeneID 149685)	0.03	0.09	0.04	-0.05
AQP7P4 (GeneID 100132938)	-0.64	-0.57	-0.54	-0.81
SLC25A2 (GeneID 83884)	0.52	0.64	0.42	0.51
RSPH1 (GeneID 89765)	0.32	0.51	0.38	0.07
EIF1AY (GeneID 9086)	0.21	-0.4	0.43	0.61
CENPU (GeneID 79682)	0.46	0.47	0.48	0.45
FIGNL1 (GeneID 63979)	-1.26	-1.48	-1.48	-0.82
RPS8 (GeneID 6202)	-1.82	-1.84	-1.95	-1.67
LINC01777 (GeneID 284661)	0.17	0.07	0.52	-0.07
DAB2 (GeneID 1601)	1.02	1.14	0.82	1.1
FBXL22 (GeneID 283807)	0.18	-0.37	0.3	0.61
FAM81A (GeneID 145773)	0.35	0.06	0.19	0.8
ARVCF (GeneID 421)	0.28	0.81	0.07	-0.05
AMOTL1 (GeneID 154810)	-0.75	-1.15	-0.48	-0.62
CDR1 (GeneID 1038)	-0.22	-0.09	-0.23	-0.33
MIB2 (GeneID 142678)	-0.35	-0.2	-0.73	-0.12
PPM1L (GeneID 151742)	-0.21	-0.25	-0.24	-0.13
FFAR4 (GeneID 338557)	-1.55	-1.68	-1.52	-1.46
LATS1 (GeneID 9113)	1.76	1.78	1.28	2.2
SARNP (GeneID 84324)	-0.54	-0.41	-0.52	-0.69
NPIPA1 (GeneID 9284)	0.08	-0.21	0.16	0.29
SIRT7 (GeneID 51547)	0.5	1	0.13	0.35
HPS3 (GeneID 84343)	-0.48	-0.48	-0.37	-0.6
CYP3A4 (GeneID 1576)	0.58	0.76	0.33	0.64
DSG3 (GeneID 1830)	0.01	0.51	-0.12	-0.37
RTTN (GeneID 25914)	0.56	0.53	0.74	0.4
POU2AF3 (GeneID 120376)	0.51	0.69	0.68	0.15
DYRK1B (GeneID 9149)	-0.07	-0.13	0.02	-0.08
ACADS (GeneID 35)	0.31	0.62	-0.08	0.38
DACT2 (GeneID 168002)	2.03	1.56	1.58	2.96
LOC390704 (retired record) (GeneID 390704)	1.91	2.06	1.99	1.7
MAGT1 (GeneID 84061)	-0.41	-0.45	-0.25	-0.51
POGLUT1 (GeneID 56983)	1	0.73	1.14	1.12
UAP1 (GeneID 6675)	1.23	1.51	0.98	1.19

Called active, of those listed so far:
gene symbol	mean z-score	z-score, replicate A	z-score, replicate B	z-score, replicate C
LOC389328 (retired record) (GeneID 389328)	2.08 (active)	2.11	1.97	2.16
